Results from paper PMC9270327 (Communications Biology, 2022).

Protein sequences, listed by entry. Tags and fused reporters are not part of them. Residues count along the entry.
UniProt O15393, whole entry: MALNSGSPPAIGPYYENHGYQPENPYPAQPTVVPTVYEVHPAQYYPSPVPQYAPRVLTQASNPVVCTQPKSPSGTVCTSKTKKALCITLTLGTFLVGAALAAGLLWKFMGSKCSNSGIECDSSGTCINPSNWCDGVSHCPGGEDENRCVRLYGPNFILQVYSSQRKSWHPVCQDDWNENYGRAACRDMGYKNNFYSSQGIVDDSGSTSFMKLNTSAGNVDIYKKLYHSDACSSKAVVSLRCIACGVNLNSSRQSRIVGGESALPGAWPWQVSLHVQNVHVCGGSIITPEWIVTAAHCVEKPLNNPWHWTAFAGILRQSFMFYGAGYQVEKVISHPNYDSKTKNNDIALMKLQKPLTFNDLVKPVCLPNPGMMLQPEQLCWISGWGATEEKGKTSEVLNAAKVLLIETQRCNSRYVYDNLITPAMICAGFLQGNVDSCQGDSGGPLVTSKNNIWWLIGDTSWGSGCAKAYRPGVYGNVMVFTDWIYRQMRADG
UniProt P00742, 235-488 limits assumed: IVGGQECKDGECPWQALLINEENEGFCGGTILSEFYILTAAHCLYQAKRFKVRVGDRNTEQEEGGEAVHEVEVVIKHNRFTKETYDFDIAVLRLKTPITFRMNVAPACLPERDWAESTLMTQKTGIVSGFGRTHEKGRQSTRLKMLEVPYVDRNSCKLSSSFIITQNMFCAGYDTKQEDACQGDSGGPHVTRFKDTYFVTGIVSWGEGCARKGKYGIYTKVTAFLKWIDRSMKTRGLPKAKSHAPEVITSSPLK
UniProt P00742, 41-179 partner limits assumed: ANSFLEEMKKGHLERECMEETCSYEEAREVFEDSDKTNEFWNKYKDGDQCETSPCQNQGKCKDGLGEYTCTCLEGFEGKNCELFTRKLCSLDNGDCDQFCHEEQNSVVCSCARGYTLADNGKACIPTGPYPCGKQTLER

What was measured:
[1] = test system: lentiviral pseudoparticles carrying SARS-CoV-2 Delta (B.1.617.2) spike, Caco-2 cells; test: Pseudovirus inhibition assay, Delta spike; conditions: for SARS-CoV-2 spike driven entry, Mean (0 nM = 100): Fig. 5d, Delta spike pseudoparticles
TMPRSS2 = TMPRSS2 (Homo sapiens, UniProt O15393); conditions: for TMPRSS2 activity, Mean (Fig. 2a): normalized, 0 nM = 100
factor Xa = factor Xa (Homo sapiens, UniProt P00742); test: Enzyme inhibition assay with purified factor Xa (Ki, dose-response); format: biochemical; conditions: for factor Xa activity, Mean (Fig. 2d): normalized, 0 nM = 100
[2] = molecular target: recombinant human thrombin (Homo sapiens, UniProt P00734); test: Enzyme inhibition assay with purified thrombin (Ki, dose-response); format: biochemical
[3] = test system: lentiviral pseudoparticles carrying SARS-CoV-2 Beta (B.1.351) spike, Caco-2 cells; test: Pseudovirus inhibition assay, Beta spike; conditions: for SARS-CoV-2 spike driven entry, Mean (0 nM = 100): Fig. 5c, Beta spike pseudoparticles
[4] = test system: lentiviral pseudoparticles carrying SARS-CoV-2 Alpha (B.1.1.7) spike, Caco-2 cells; test: Pseudovirus inhibition assay, Alpha spike; conditions: for SARS-CoV-2 spike driven entry, Mean (0 nM = 100): Fig. 5b, Alpha spike pseudoparticles
[5] = test system: SARS-CoV-2 Alpha (B.1.1.7), Caco-2 cells; test: SARS-CoV-2 inhibition assay, VOC Alpha (in-cell ELISA); conditions: Fig. 6c, VOC Alpha

## CC(=O)N[C@@H](Cc1c[nH]cn1)C(=O)N1CCC[C@H]1C(=O)NC(CCCNC(=N)N)C(=O)c1nc2ccccc2s1 (stereo partly shown)
[1]; compound 3.2 nM
  SARS-CoV-2 spike driven entry, Mean (0 nM = 100): 88.7367
[1]; compound 16 nM
  SARS-CoV-2 spike driven entry, Mean (0 nM = 100): 86.7648
[1]; compound 80 nM
  SARS-CoV-2 spike driven entry, Mean (0 nM = 100): 78.605
[1]; compound 400 nM
  SARS-CoV-2 spike driven entry, Mean (0 nM = 100): 63.5363
[1]; compound 2000 nM
  SARS-CoV-2 spike driven entry, Mean (0 nM = 100): 31.2727
[1]; compound 10000 nM
  SARS-CoV-2 spike driven entry, Mean (0 nM = 100): 6.7
[1]; compound 50000 nM
  SARS-CoV-2 spike driven entry, Mean (0 nM = 100): 0.8724
[1]; read-out: IC50 pseudotyped lentivirus Delta, Caco-2 cells, luciferase 2 days post transduction
  IC50: 610 nM
TMPRSS2; 0.05 nM
  TMPRSS2 activity, Mean (Fig. 2a): 97.5
TMPRSS2; 0.5 nM
  TMPRSS2 activity, Mean (Fig. 2a): 100
TMPRSS2; 5 nM
  TMPRSS2 activity, Mean (Fig. 2a): 79.4231
TMPRSS2; 50 nM
  TMPRSS2 activity, Mean (Fig. 2a): 29.0385
TMPRSS2; 500 nM
  TMPRSS2 activity, Mean (Fig. 2a): 2.885
TMPRSS2; 5000 nM
  TMPRSS2 activity, Mean (Fig. 2a): 0.7692
TMPRSS2; 50000 nM
  TMPRSS2 activity, Mean (Fig. 2a): 0.3846
TMPRSS2; 500000 nM
  TMPRSS2 activity, Mean (Fig. 2a): 0
TMPRSS2; read-out: Ki TMPRSS2, 30 min preincubation, substrate Boc-Gln-Ala-Arg-AMC, Ki from IC50 by Cheng–Prusoff
  Ki: 8.5 nM
Factor Xa; 0.02 nM
  factor Xa activity, Mean (Fig. 2d): 108.286
Factor Xa; 0.04 nM
  factor Xa activity, Mean (Fig. 2d): 93.9225
Factor Xa; 0.2 nM
  factor Xa activity, Mean (Fig. 2d): 100.182
Factor Xa; 2 nM
  factor Xa activity, Mean (Fig. 2d): 107.458
Factor Xa; 20 nM
  factor Xa activity, Mean (Fig. 2d): 86.9235
Factor Xa; 200 nM
  factor Xa activity, Mean (Fig. 2d): 69.797
Factor Xa; 10000 nM
  factor Xa activity, Mean (Fig. 2d): 11.418
Factor Xa; 100000 nM
  factor Xa activity, Mean (Fig. 2d): 11.0497
Factor Xa; quotient Ki factor Xa / Ki TMPRSS2
  Selectivity index Factor Xa: 38.9
Factor Xa; read-out: Ki Factor Xa, 30 min preincubation, substrate Bz-Ile-Glu-Gly-Arg-pNA
  Ki: 331 nM
[2]; quotient Ki thrombin / Ki TMPRSS2
  Selectivity index Thrombin: 849
[2]; read-out: Ki Thrombin, 30 min preincubation, substrate D-Phe-Homopro-Arg-pNA
  Ki: 7220 nM
[3]; compound 3.2 nM
  SARS-CoV-2 spike driven entry, Mean (0 nM = 100): 74.1565
[3]; compound 16 nM
  SARS-CoV-2 spike driven entry, Mean (0 nM = 100): 60.683
[3]; compound 80 nM
  SARS-CoV-2 spike driven entry, Mean (0 nM = 100): 61.0295
[3]; compound 400 nM
  SARS-CoV-2 spike driven entry, Mean (0 nM = 100): 51.263
[3]; compound 2000 nM
  SARS-CoV-2 spike driven entry, Mean (0 nM = 100): 21.222
[3]; compound 10000 nM
  SARS-CoV-2 spike driven entry, Mean (0 nM = 100): 8.6885
[3]; compound 50000 nM
  SARS-CoV-2 spike driven entry, Mean (0 nM = 100): 1.351
[3]; read-out: IC50 pseudotyped lentivirus Beta, Caco-2 cells, luciferase 2 days post transduction
  IC50: 141 nM
[4]; compound 3.2 nM
  SARS-CoV-2 spike driven entry, Mean (0 nM = 100): 84.747
[4]; compound 16 nM
  SARS-CoV-2 spike driven entry, Mean (0 nM = 100): 84.996
[4]; compound 80 nM
  SARS-CoV-2 spike driven entry, Mean (0 nM = 100): 73.309
[4]; compound 400 nM
  SARS-CoV-2 spike driven entry, Mean (0 nM = 100): 61.9645
[4]; compound 2000 nM
  SARS-CoV-2 spike driven entry, Mean (0 nM = 100): 29.747
[4]; compound 10000 nM
  SARS-CoV-2 spike driven entry, Mean (0 nM = 100): 5.316
[4]; compound 50000 nM
  SARS-CoV-2 spike driven entry, Mean (0 nM = 100): 1.6355
[4]; read-out: IC50 pseudotyped lentivirus Alpha, Caco-2 cells, luciferase 2 days post transduction
  IC50: 486 nM
[5]; compound 32 nM
  SARS-CoV-2 infection, Mean (0 nM = 100): 97.9558
[5]; compound 160 nM
  SARS-CoV-2 infection, Mean (0 nM = 100): 100.192
[5]; compound 800 nM
  SARS-CoV-2 infection, Mean (0 nM = 100): 104.696
[5]; compound 4000 nM
  SARS-CoV-2 infection, Mean (0 nM = 100): 113.063

Where two headings read alike, the source gives them in different places.
